Reference: patent US20040102431A1, “Substituted amino-aza-cycloalkanes useful against malaria” (priority 2000, published 2004)
This is a selection: effects in other tests are not listed, and their absence says nothing.

Sequences of proteins named here, by UniProt entry; tags and fusion partners are left off. Residues count along the entry.
UniProt P46925, 125-453 limits assumed: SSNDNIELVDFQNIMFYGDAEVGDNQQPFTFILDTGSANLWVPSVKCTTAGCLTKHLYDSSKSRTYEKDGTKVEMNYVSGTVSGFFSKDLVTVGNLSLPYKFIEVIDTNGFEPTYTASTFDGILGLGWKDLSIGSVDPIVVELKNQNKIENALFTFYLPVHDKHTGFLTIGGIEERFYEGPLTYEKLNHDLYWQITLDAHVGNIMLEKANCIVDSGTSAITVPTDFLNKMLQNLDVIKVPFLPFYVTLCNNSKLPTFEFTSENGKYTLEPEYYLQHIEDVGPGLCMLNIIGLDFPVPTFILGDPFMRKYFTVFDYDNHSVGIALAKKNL

Biological target: plasmepsin II (Plasmodium falciparum, UniProt P46925)
Experiment: fluorescence resonance energy transfer (FRET) assay for plasmepsin II
Type: biochemical
Conditions: read-out: IC50 (nM) on plasmepsin II, Table 1, selected compounds, pH 5, 37° C., 40 min, substrate 1 μM

SMILES: CCCCCc1ccc(C(=O)N(c2ccc(OCc3ccccc3)cc2)C2CCN(Cc3ccccc3)CC2)cc1
- IC50: 1530 nM
